Results on twelve molecules are retold here after the supplement of paper PMC9931576.

Holding throughout (experiment): pseudovirus neutralization IC50; higher = weaker neutralization
The target in assay [1] is SARS-CoV-2 Omicron BA.1 spike pseudovirus. The protocol:
(§1)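 Single-round VSV luciferase pseudovirus mixed with antibody dilutions for 1 h and put on Huh-7 cells for about a day; IC50 from the dose curve.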

In assay [2] the target is SARS-CoV-2 Omicron BA.2 spike pseudovirus. The method, then: as §1
In assay [3] the target is SARS-CoV-2 Omicron BA.2.75 spike pseudovirus. The protocol:
as §1

Assay [4] concerns the target SARS-CoV-2 Omicron BA.5 spike pseudovirus. The protocol: as §1
Assay [5] concerns the target SARS-CoV-2 Omicron BQ.1.1 spike pseudovirus. The protocol: as §1
For assay [6], the target named is SARS-CoV-2 Omicron XBB spike pseudovirus. The method, then: as §1
The target in assay [7] is SARS-CoV-2 early D614G spike pseudovirus. The method, then:
as §1

Human monoclonal antibodies against the spike receptor-binding domain (heavy:light variable regions). IC50 against pseudoviruses bearing the spike of naturally observed variants; lower = stronger; >10 µg/ml means not reached at the top dose. No active / inactive call. The stated detection limit is 0.0005 µg/ml; values near or below 0.001 µg/ml lie at the floor of the assay. A value given as a limit tells only on which side of the number the result lay.

B1: BD57-0280 (protein)
chain 1: EVQLVQSGAEVKKPGESLKISCKGSGYSFTTYWIGWVRQMPGKGLEWMGIIYPGDSDTTYSPSFQGHVTISADKSISTAYLQWSSLKASDTAMYYCARRSDSGSFPSLDYWGQGTLVTVSS
chain 2: DIQMTQSPSSLSASVGDRITITCRASQSISSYLNWYQQKPGKVPKLLIYAASSLQSGVPSRFRGSGSGTDFTLTISSLQPEDFATYYCQQSFSTMGLTFGGGTKVEIK
Turning to B1, the “pseudovirus neutralization IC50” value in assay [1] was found to be 2.83 µg/mL; in assay [2], 3.02 µg/mL; in assay [3] it was 5.6 µg/mL; in assay [4], 4.09 µg/mL; in assay [5] it was 3.3 µg/mL; in assay [6] it was 3.56 µg/mL. Moreover, in assay [7], the “pseudovirus neutralization IC50” value was 3.9 µg/mL.

B2: BD57-0268 (protein)
chain 1: QVQLRESGPGLVKPSQTLSLTCTVSGGYISSGGAYWSWIRQRPGKGLEWIGYIHNSGTTYYNPSLKSRSTILVDTSENQFSLKLNSVTAADTAVYYCARVKTYYYDSNLYPVSAFDYWGQGALVSVSS
chain 2: SYDLTQPPSLSVSPGQTARITCSGDKLGTKYPCWYQLKTGQSPVLVIYQDNKRPSGIPERFSASTSGNTATLTISGAQPMDEANYYCQAWDSSLWVFGGGTQLTVL
Take B2: the “pseudovirus neutralization IC50” value in assay [1], in assay [2], in assay [3], in assay [4], in assay [5] and in assay [6] was more than 10 µg/mL throughout. In addition, the “pseudovirus neutralization IC50” value in assay [7] was more than 10 µg/mL.

B3: BD57-0267 (protein)
chain 1: QVQLQESGPGLVKPSETLSLTCIVSGASITDSHWSWIRQPPGKGLEWIGYLYYSGYTDYNPSLKSRVTISLDTPKNQFSLKVSSVTAADTAVYYCARLRLGKILTARWFDPWGQGTLVTVSS
chain 2: QSVLTQPPSVSGAPGQRVTISCTGSSSNIGAGYDVHWYQQFPGTAPELLIYGNNNRPSGVPDRFSGSKSGTSASLAITGLQAEDEANYFCQSHDNSLSGSIFGGGTKLTVL
As to B3, the “pseudovirus neutralization IC50” value in assay [1] came out at 0.00506 µg/mL; in assay [2] it was 0.0129 µg/mL; in assay [3], 0.0229 µg/mL; in assay [4], 0.0173 µg/mL; in assay [5], 0.313 µg/mL; in assay [6], 1.79 µg/mL. For the same molecule, the “pseudovirus neutralization IC50” value in assay [7] was found to be 0.00161 µg/mL.

B4: BD57-0259 (protein)
chain 1: QVHLVQSGAEVKKPGSSVRVSCRASGGTFGTYAITWVRQAPGQGLEWMGGIIPMYGTTNYAQKFQGRVTITADESTNTAYMELNSLRFEDTAVYYCARDEPGYNNPSYYYYYMEVWGKGTTVTVSS
chain 2: ELVLTQSPGTLSLSPGERVTLTCRASQSVTNNYLAWYQHKPGQAPRLLIYGASSRATGIPPRFSGSGSGTDFTLSISRLETEDFAVYYCQQYGDSITFGQGTRLEIK
B4: the “pseudovirus neutralization IC50” value is 0.598 µg/mL in assay [1]; 0.309 µg/mL in assay [2]; 0.489 µg/mL in assay [3]; 0.0918 µg/mL in assay [4]; more than 10 µg/mL in assay [5]; more than 10 µg/mL in assay [6]. Also, the “pseudovirus neutralization IC50” value in assay [7] came out at 0.21 µg/mL.

B5: BD57-0282 (protein)
chain 1: QVQLVESGGGVVQPGRSLRLSCAVSRFTFSRYPMHWVRQTPGKGLEWVAAITSDGTGKFYAESVKGRFTISRDNSKNTMYLQMNSLRPEDTAMYYCAREGDMSMVAILDYWGQGALVTVSS
chain 2: DIQMTQSPTSLSASVGDRVTITCRASQSIQSYLNWYQQKPGKAPKLLIYSASTLHSGVPSRFSGSGSGTDFTLTISSLQPEDFATYYCQQSYSSFPLTFGGGTKVEIK
Regarding B5, the “pseudovirus neutralization IC50” value in assay [1] was found to be 3.16 µg/mL; in assay [2], 2.35 µg/mL; in assay [3] it was 4.69 µg/mL; in assay [4] it was 3.04 µg/mL; in assay [5], 4.22 µg/mL; in assay [6], 4.64 µg/mL. Besides, in assay [7], the “pseudovirus neutralization IC50” value worked out at 1.7 µg/mL.

B6: BD57-0255 (protein)
chain 1: QLQLQESGPRLAKPLETLSLTCTVSGGSISSRNYYWNWIRQAPGKGLEWIGSVYDSGTYYNPSLKSPVAISVDTSKNQFSLKLNSVTAADTAVYYCAVQLWLRGNMDVWGQGTTVTVSS
chain 2: NLMLTQPHSVSESPGKTVVISCTGSGGYIGNNYVQWYQQRPGSAPTTVIYEDNQRPSGVPDRFSGSIDSSSNSASLTISGLRTEDEADYYCQSYDINTHVVFGGGTKLTVL
Turning to B6, the “pseudovirus neutralization IC50” value in assay [1] was more than 10 µg/mL; in assay [2] it was 2.86 µg/mL; in assay [3] it was 3.28 µg/mL; in assay [4], 2.41 µg/mL; in assay [5], 3.28 µg/mL; in assay [6], 3.19 µg/mL. Moreover, in assay [7], the “pseudovirus neutralization IC50” value was determined as 0.183 µg/mL.

B7: BD57-0239 (protein)
chain 1: QGQLVQSGAAVKKPGSSVKVSCKASGGTFSSYAISWVRQAPGQGLEWMGGIMPIYGTVNYAQTFQGRVTITADESTSTAYMELSSLRSEDTAVYYCARDFGDIPTRLSYAYYMDVWGQGTSVTVPS
chain 2: QSALAQPASVSGSPGQSITISCTGTSSDVGGYNFVSWYQQHPGKAPKLMIFDVNNRPSGVSNRFSGSKSGNTASLTISGLQAEDEADYYCSSYTSSSTPYVFGSGTKVTVL
Regarding B7, the “pseudovirus neutralization IC50” value in assay [1] is 0.0368 µg/mL; in assay [2], 0.0247 µg/mL; in assay [3] it was 0.0196 µg/mL; in assay [4], 0.0351 µg/mL; in assay [5], more than 10 µg/mL; in assay [6] it was 3.06 µg/mL. The “pseudovirus neutralization IC50” value in assay [7] is 0.00623 µg/mL.

B8: BD57-0238 (protein)
chain 1: QLQLQESGPGLVKPSETLSLTCTVSGGSISSSSYYWAWIRQPPGKGLEWIGSIFHSGITYYNPSFKSRVTISVDTSKNNFSLKLSSVTAADMGVYYCARLVRGFGYYASGSYDQWGQGTLVAVSS
chain 2: QSALTQPASVSGSPGQSISISCTGTSSDIGSYNLVSWYQQHPGKAPKLMIYEDNKRPSGVSNRFSGSKSGNTASLTISGLQAEDEANYYCSSYVGSSTSLFGGGTKLTVL
For B8, the “pseudovirus neutralization IC50” value in assay [1], in assay [2], in assay [3], in assay [4], in assay [5] and in assay [6] was more than 10 µg/mL throughout. Also, the “pseudovirus neutralization IC50” value in assay [7] is more than 10 µg/mL.

B9: BD57-0249 (protein)
chain 1: QVQLMQSGAEVKRPGASVKVSCKPSGHTFTNSYIHWVRQAHGQGLEWLGIINPSGGSTTYAQKFQGRVTMTSDTSTTTVYMELSRLRFEDTAVYYCARGGFIPDHRTAFDIWGQGTMVSVSS
chain 2: DIQMTQSPPTLSASVGDRVTITCRASQSIGNSLAWYQQRPGKAPNLLIYKASNLESGVPSRFSGSGSGTEFTLTISSLQPDDFATYYCQQYNTYYTFGQGTKLEIK
Consider B9, for which the “pseudovirus neutralization IC50” value in assay [1] was 2.68 µg/mL; in assay [2], 4.72 µg/mL; in assay [3], 6.06 µg/mL; in assay [4], 6.8 µg/mL; in assay [5], 8.81 µg/mL; in assay [6] it was 8.26 µg/mL. In assay [7], the “pseudovirus neutralization IC50” value was more than 10 µg/mL.

B10: BD57-0265 (protein)
chain 1: QVQLQVSGPGLVKPSETLSLTCTVSGGSISSYYWTWIRQPPGKGLEWIGYVFYNGSTKYNPSLKSRLTISVDTSRDQFSLRLRSVTAADTAVYFCAGDYGDSYYQFGMDVWGQGTTVTVSS
chain 2: DIQMTQSPSSVSASVGDRVTITCRASQGISGWLAWYQQKPGKAPKLLIYAASNLQSGVPSRFSGSGSGTDFTLSIDNLQPEDFATYYCQQANSFPRTFGQGTKVEIK
In the case of B10, the “pseudovirus neutralization IC50” value was 6.51 µg/mL in assay [1]; more than 10 µg/mL in assay [2]; 7.8 µg/mL in assay [3]; 5.67 µg/mL in assay [4]; 4.95 µg/mL in assay [5]; 2.69 µg/mL in assay [6]. In addition, the “pseudovirus neutralization IC50” value in assay [7] is more than 10 µg/mL.

B11: BD57-0269 (protein)
chain 1: QKQLVQSGPEVKKPGTSVKVSCKASGFTFITSAVQWVRQARGQRLEWIGWIAVGSGTTDYTQKFQERVTITRDMSTTTAYMELRSLRSEDTAVYYCAAPDCNRTSCRDGFDIWGQGTMVTVSS
chain 2: EIVLTQSPGTLSLSPGERATLSCRASQSVSRSYLGWYQQKPGQAPRLVIDGALRRATGIPDRFSGSGSGTDFTLTISRLEPEDFAVYYCQQYGSSPFTFGQGTKLEIK
B11: the “pseudovirus neutralization IC50” value was 0.00183 µg/mL in assay [1]; 0.00257 µg/mL in assay [2]; 0.0013 µg/mL in assay [3]; 0.00322 µg/mL in assay [4]; 0.0854 µg/mL in assay [5]; more than 10 µg/mL in assay [6]. The “pseudovirus neutralization IC50” value in assay [7] came to 0.0027 µg/mL.

B12: BD57-0260 (protein)
chain 1: QVLLVQSGTEVKKPGSSVRVSCKASGGIFRDNTINWVRQAPGHGLEWMGRIIPHPNLTDYVERLQDRLTIIADKATSTAYLELRSLRSEDTAVYYCASPLKRGYSGYDYFDYGMDVWGQGTTVIVSS
chain 2: DTQMTQSPSSLSASIGDRVTITCQANQDITNFLNWYQQKPGKAPRLLIYLASNMEKGVPSRFSGSGSGTDFTFTISSLQPEDVATYYCQQYDNLPLTFGGGTKVNIK
For B12, the “pseudovirus neutralization IC50” value was 0.384 µg/mL in assay [1]; more than 10 µg/mL in assay [2]; more than 10 µg/mL in assay [3]; more than 10 µg/mL in assay [4]; more than 10 µg/mL in assay [5]; more than 10 µg/mL in assay [6]. In assay [7], the “pseudovirus neutralization IC50” value was 0.0164 µg/mL.
